# Results deposited as PubChem BioAssay AID1259414 (Drosophila RNAi Screening Center, 2018).
# Test: 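Fly genes that alter Wolbachia amount inside host cells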 (primary screen)
# System: Drosophila JW18 cells infected with Wolbachia
# Knock-down reagent: long dsRNA against Drosophila genes, 0.25 µg dsRNA per well of a 384-well plate
# Duration: 5 days
# Treatment: cells persistently infected with Wolbachia before knock-down; no added drug
# Measured: 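Automated imaging of bacterial rRNA staining divided by host cell count, reported as plate-normalised robust z-score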
# Scale: Wolbachia per cell robust z: higher = more Wolbachia per host cell than the plate typical
# Hit rule: 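Active if absolute robust z reaches 1.5 in two or more of three replicates, leaving out multi- or no-target dsRNAs, genes unexpressed in JW18 and A1 wells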
# The deposit covers about 24,000 reagents; this is an unselected part of those that have a named target and a result. In the full data, about 1,210 (5%) got an active call. 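Inactive calls also include excluded dsRNAs with several or no targets, genes unexpressed in JW18, and well A1, regardless of score.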 Entries without a mark were called inactive. A plus sign joins genes that one reagent is predicted to hit. No sequences are given here.
Gene,amplicon,"Wolbachia per cell robust z, rep 1","Wolbachia per cell robust z, rep 2","Wolbachia per cell robust z, rep 3"
Tsp42El,DRSC06186,-0.398,0.375,0.297
mub,DRSC11896,-0.673,-0.219,0.0517
mub,DRSC29738,0.00438,-1.68,0.368
Dys,DRSC13364,-1.15,-0.294,-0.665
Dys,DRSC15260,-4.78 (active),-3.65,1.06
Dys,DRSC16218,-1.4,-4.56,1
Dys,DRSC16219,-1.06,-3.88,0.344
Dys,DRSC16220,0.684,-0.71,0.955
Dys,DRSC16935,0.373,-0.531,0.686
Dys,DRSC25148,0.695,0.3,1.53
Dys,DRSC40685,-0.0207,0.132,0.124
CG6607,DRSC16073,0.471,0.54,0.829
CG2200,DRSC19840,-0.137,-3.36,1.05
CG9691,DRSC18441,0.889,-1.66,0.514
Sh,DRSC19214,0.97,-0.122,0.306
Sh,DRSC19785,0.349,0.274,-0.0492
Sh,DRSC20055,0.461,-2.44,-4.75
Sh,DRSC25790,-4.98,-0.28,0.51
Sh,DRSC25811,-0.239,-0.215,-0.941
CG30349,DRSC06421,0.229,0.0913,-0.373
CG30349,DRSC06839,1.41,-0.145,-0.759
CG30349,DRSC28739,-0.237,0.363,-0.137
SCAP,DRSC04869,-2.69,-0.84,-0.123
SCAP,DRSC04907,-2.96,-0.979,-0.731
GAA1,DRSC18267,1.58,-1.13,0.698
ScsbetaA,DRSC14446,0.366,0.502,0.993
ScsbetaA,DRSC27770,-0.00923,-0.643,-1.46
CG5445,DRSC23180,0.164,1.51,-0.0166
Alms1b + Alms1a,DRSC18559,-2.39,0.0462,-3.93
ALiX,DRSC14564,0.812,-2.39,-1.09
ALiX,DRSC27006,-0.0281,-0.303,-0.379
Cad89D,DRSC15022,-0.426,-0.0431,0.472
ida,DRSC08163,0.173,0.053,1.7
Cngl,DRSC19795,-5.54,0.815,-0.106
Cngl,DRSC20318,1.8,2.49,2.12
Cngl,DRSC23577,-0.12,0.314,0.0181
Cngl,DRSC25333,0.13,0.472,-0.748
CG4281,DRSC18521,1.54 (active),1.61,1.38
CG4281,DRSC28415,0.178,0.842,-0.468
CG11562,DRSC00316,0.22,-0.0794,-0.196
CG7101,DRSC20023,-0.498,-0.127,2.57
CG7101,DRSC22845,-0.0553,-1.08,-0.218
CG7848,DRSC07050,-0.948,1.03,0.617
CG4497,DRSC02754,0.137,0.792,-2.14
E(bx),DRSC08172,0.659,0.458,-2.35
E(bx),DRSC08509,2.07,0.685,-0.36
E(bx),DRSC08583,0.702,1.47,1.32
CG15098,DRSC06527,-3.37,0.0663,0.206
CG15098,DRSC29966,1.29,-0.55,-0.365
mRpL38,DRSC19734,0.55,-0.0268,0.147
mRpL38,DRSC29074,-0.361,0.0437,-1.82
CG33795,DRSC37835,-0.679,-0.325,-1.19
CG12093,DRSC08252,-0.531,-2.32,-0.718
CG15741,DRSC19707,-2.46,-1.75,-0.156
CG15741,DRSC24220,0.295,1.64,1.31
CG6484,DRSC06991,-1.37,-2.17,0.919
CG6484,DRSC28087,-0.453,-0.666,0.27
Pka-C1,DRSC03399,0.322,-1,0.501
Pka-C1,DRSC23314,0.39,-0.106,-0.116
Pka-C1,DRSC28268,-2.06,-0.205,-0.321
CG32982,DRSC02677,-1.02,0.00482,-0.589
CG32982,DRSC03269,0.0533,0.0151,0.665
CG32982,DRSC21912,-2.53,-0.824,-1.21
Liprin-beta,DRSC09795,0.661,0.898,1.12
Liprin-beta,DRSC23339,-4.74,-0.462,-1.07
Liprin-beta,DRSC28695,0.0729,0.32,-0.155
Hmr,DRSC17740,-2.25,1.35,-1.23
in,DRSC11888,-2.34,0.0166,-2

Reagents above with an active call, once more:
Gene,amplicon,"Wolbachia per cell robust z, rep 1","Wolbachia per cell robust z, rep 2","Wolbachia per cell robust z, rep 3"
Dys,DRSC15260,-4.78 (active),-3.65,1.06
CG4281,DRSC18521,1.54 (active),1.61,1.38
